The results in this text go back to PubChem BioAssay AID1224854 (National Center for Advancing Translational Sciences (NCATS), 2016).

The assay is described as follows: Cell viability assay for measurement of the protective activity of small molecules against cell death caused by Zika virus infection in human astrocytoma cells. As to conditions: SNB-19 Zika virus cytoprotection, ATP luminescence, 72 h; at 46.1 µM (top of the series). The text has this:
National Center for Advancing Translational Sciences [NCATS] Johns Hopkins University School of Medicine Florida State University Assay Overview: Zika virus infection causes cell death in certain cell types including human neural progenitor cells (hNPCs), astrocytes, and astrocytoma cell line (SNB-19). This cell viability assay measures the ATP content (level) in human astrocytoma cells (SNB-19) using a luminescence readout that is proportional to viable cell numbers. Decrease in the luminescence signal after Zika virus infection indicates the cell death caused by Zika virus. Small molecule inhibitors […] the decreased luminescence signal after Zika virus infection, indicating the protective effect of that small molecule on the cell death caused by Zika virus infection. This observed protective effect of small molecules against Zika virus induced cell death may result from inhibition of virus replication or cellular response to the virus infection.
Assay Protocol Summary: The medium for SNB-19 cells is composed of RPMI 1640 (ATCC, Cat.# 30-2001), 10% fetal bovine serum (FBS) (GE healthcare Life Sciences, Cat.# SH30071.03), and 1% Pen/Strep (Gibco, Cat.# 15140-122). […] The luminescence intensity of the assay plates was measured using a ViewLux plate reader (PerkinElmer). […] The percentage inhibitions of the decreased cell viability by small molecule inhibitors were then calculated.

Structures are written as SMILES. Only a part is listed here, and it is no random draw. Results filed as inconclusive are left out. The source made the active and inactive calls. Calls follow the shape of the dose curve; as a rule, active = well fitted activation curve with a large enough effect; inconclusive = small, poorly fitted or top-dose-only effect; inactive = flat fitted curve, though single readings scatter.

`C/C1=C2N=C(/C=C3N=C(/C(C)=C4\[N-][C@@](C)([C@@H]5N=C1[C@](C)(CCC(=O)NC[C@@H](C)OP(=O)([O-])O[C@H]1[C@@H](O)[C@@H](n6cnc7cc(C)c(C)cc76)O[C@@H]1CO)[C@H]5CC(N)=O)[C@@](C)(CC(N)=O)[C@@H]4CCC(N)=O)[C@@](C)(CC(N)=O)[C@@H]\3CCC(N)=O)C(C)(C)[C@@H]/2CCC(N)=O.[C-]#N.[Co+3]`: the protection from virus-induced cell death is inactive: -5.63%.
